{"source": "paper PMC4376002", "about": "(Frontiers in Bioengineering and Biotechnology, 2015)", "system": "L. pneumophila Corby isogenic mip-deficient mutant (Δmip)", "note": "Values joined by “and” are separate entries in the source; they are usually repeats but may differ in a detail not shown here. Identical values can stand only once."}
{"compound": "C[C@@H]1CC([C@H](O)CC2CC(=O)N(CC(=O)N(C)C(C)(C)C)C(=O)C2)C(=O)[C@@H](C)C1", "note": "(stereo partly drawn) [MT_30.9]", "values": [{"measurement": "Δmip MIC", "result": 30, "unit": "µM"}]}
{"compound": "CC1CC(C)C(=O)C(C(O)CC2CC(=O)N(CC(=O)NC34CC5CC(C)(CC(C)(C5)C3)C4)C(=O)C2)C1", "note": "(stereo not drawn) [MT_30.32]", "values": [{"measurement": "Δmip MIC", "result": 30, "unit": "µM"}]}
{"compound": "CCC12CC3CC(C1)CC(NC(=O)CN1C(=O)CC(C[C@@H](O)C4C[C@@H](C)C[C@H](C)C4=O)CC1=O)(C3)C2", "note": "(stereo partly drawn) [MT_30.51]", "values": [{"measurement": "Δmip MIC", "result": 30, "unit": "µM"}]}
{"compound": "C[C@@H]1CC([C@H](O)CC2CC(=O)N(CC(=O)NC34CC5CC(CC(C5)C3)C4)C(=O)C2)[C@H](O)[C@@H](C)C1", "note": "(stereo partly drawn) [MT_30.92]", "values": [{"measurement": "Δmip MIC", "result": 40, "unit": "µM"}]}
{"compound": "C[C@@H]1CC([C@H](O)CC2CC(=O)N(CC(=O)NC34CC5CC(CC(C5)C3)C4)C(=O)C2)[C@@H](O)[C@@H](C)C1", "note": "(stereo partly drawn) [MT_30.93]", "values": [{"measurement": "Δmip MIC", "result": 40, "unit": "µM"}]}
{"compound": "CO[C@H]1C[C@@H]2CC[C@@H](C)[C@@](O)(O2)C(=O)C(=O)N2CCCC[C@H]2C(=O)O[C@H]([C@H](C)C[C@@H]2CC[C@@H](O)[C@H](OC)C2)CC(=O)[C@H](C)/C=C(\\C)[C@@H](O)[C@@H](OC)C(=O)[C@H](C)C[C@H](C)/C=C/C=C/C=C/1C", "note": "[Rapamycin, reference compound]", "values": [{"measurement": "Δmip MIC", "result": "≥ 40 µM and 40 µM"}]}
